Here are results for 39 molecules from PubChem BioAssay AID1053175 (ICCB-Longwood Screening Facility, Harvard Medical School, 2014).

Only a part is listed here, and it is no random draw. Activity calls are given as the source filed them.

This assay is described as follows: E. coli growth inhibition, primary screen, OD600 (AID 1053175). The settings on record: Escherichia coli growth, OD600, 23 h; active compounds read low.
As for `Cc1cc(-c2cccc3ccccc23)c(C)cn1.O=[N+]([O-])c1cc([N+](=O)[O-])c(O)c([N+](=O)[O-])c1`, the OD600 absorbance was inactive: 0.683.

For `CN(C(=O)Cc1ccc(Cl)c(Cl)c1)C1CC[C@@]2(CCCO2)CC1N1CCCC1` (some centres undefined), the OD600 absorbance is inactive: 0.706.

With `O=[N+]([O-])c1ccc(O)c(C=NNc2ccc([N+](=O)[O-])cc2[N+](=O)[O-])c1`, the OD600 absorbance is inactive: 0.622.

On to `Cc1c(C(c2ccc3c(c2)OCO3)c2c(C)n(C)n(-c3ccccc3)c2=O)c(=O)n(-c2ccccc2)n1C.O=[N+]([O-])c1cc([N+](=O)[O-])c(O)c([N+](=O)[O-])c1`, for which the OD600 absorbance was inactive: 0.696.

With `Nc1ccc([As](=O)(O)c2ccc([N+](=O)[O-])cc2)cc1`, the OD600 absorbance was inactive: 0.655.

Regarding `C(Cc1nn[nH]n1)Cc1nn[nH]n1`, the OD600 absorbance is inactive: 0.698.

`O=C(OC1CN2CCC1CC2)c1cccc(Cl)c1` (centres undefined): the OD600 absorbance was inactive: 0.716.

Turning to `O=C(NC1CCS(=O)(=O)C1)NP(=S)(Oc1ccccc1)Oc1ccccc1` (centres undefined), the OD600 absorbance was inactive: 0.654.

Turning to `c1ccc(-c2nn[nH]n2)c(-c2nn[nH]n2)c1`, the OD600 absorbance is inactive: 0.667.

On to `Cc1ccc(NP(=O)(Oc2cccc(C)c2)Oc2cccc(C)c2)nc1`, for which the OD600 absorbance is inactive: 0.699.

`O=P1(N(CCCl)CCCl)OCCC2CCCCN21` (centres undefined): the OD600 absorbance is inactive: 0.687.

As for `CCOC(=O)c1ccc(NP(C)(=O)Oc2ccc(F)cc2)cc1` (centres undefined), the OD600 absorbance was inactive: 0.656.

As for `COc1ccc(OP(C)(=O)Nc2ccc(SC(F)(F)F)cc2)cc1` (centres undefined), the OD600 absorbance was inactive: 0.657.

As for `Cc1c([N+](=O)[O-])cc([N+](=O)[O-])c(Br)c1[N+](=O)[O-]`, the OD600 absorbance was inactive: 0.686.

On to `COC(=O)c1cc2c(s1)N=C(c1ccccc1)N(C)P2(=O)N1CCOCC1` (centres undefined), for which the OD600 absorbance is inactive: 0.712.

Consider `Cc1ccc(OP(=O)(Nc2ccccn2)Oc2ccc(C)cc2)cc1`, for which the OD600 absorbance was inactive: 0.679.

`CC(=O)NC(SC(=S)N(CC(C)C)CC(C)C)C(Cl)(Cl)Cl` (centres undefined): the OD600 absorbance is inactive: 0.683.

Regarding `O=C(OC1CN2CCC1CC2)c1ccccc1` (centres undefined), the OD600 absorbance is inactive: 0.647.

For the molecule `CC1OP(=O)(Oc2ccccc2)CC2OC12` (centres undefined), the OD600 absorbance is inactive: 0.706.

Regarding `CCN(CC)CCCOC(=O)C(O)(c1ccccc1)C1CCCCC1` (centres undefined), the OD600 absorbance was inactive: 0.733.

In the case of `CCC(=O)N1C2C3N(C(=O)CC)C1C1N(C(=O)CC)C(C(N1C(=O)CC)N3C(=O)CC)N2C(=O)CC`, the OD600 absorbance is inactive: 0.712.

Consider `CP(=O)(Nc1ccccc1)Oc1ccc(F)cc1` (centres undefined), for which the OD600 absorbance is inactive: 0.679.

Consider `Cc1ccccc1OP(=O)(Nc1ccccn1)Oc1ccccc1C`, for which the OD600 absorbance was inactive: 0.681.

In the case of `CC(NC(=O)COC(=O)C(O)(c1ccccc1)c1ccccc1)c1ccccc1` (centres undefined), the OD600 absorbance is inactive: 0.692.

With `CN(C)C(=O)Oc1noc2ccccc12`, the OD600 absorbance is inactive: 0.66.

For `O=[N+]([O-])c1cc([N+](=O)[O-])c(OC2CCCCC2O)c([N+](=O)[O-])c1` (centres undefined), the OD600 absorbance is inactive: 0.668.

In the case of `CN(C(=O)Cc1ccccc1)C1CC[C@]2(CCCO2)CC1N1CCCC1` (some centres undefined), the OD600 absorbance was inactive: 0.732.

Regarding `O=P1(Nc2nc3ccc(Cl)cc3s2)COc2ccccc2O1` (centres undefined), the OD600 absorbance was inactive: 0.683.

For `CCOc1ccc(C2=NCC(CBr)S2)cc1` (centres undefined), the OD600 absorbance was inactive: 0.687.

Consider `CCc1cc(O)c([N+](=O)[O-])c(C)c1[N+](=O)[O-]`, for which the OD600 absorbance is inactive: 0.615.

On to `CP(=O)(Nc1ccccc1F)Oc1ccccc1` (centres undefined), for which the OD600 absorbance is inactive: 0.699.

`CC(C)(C)C(=O)NC(Sc1ccccc1)C(Cl)(Cl)Cl` (centres undefined): the OD600 absorbance was inactive: 0.679.

`NC(=NO)c1c(N)no[n+]1[O-]`: the OD600 absorbance was inactive: 0.742.

As to `CC(=O)c1ccc(N2CC2c2ccncc2)cc1` (centres undefined), the OD600 absorbance was inactive: 0.647.

On to `O=C(OC1CN2CCC1CC2)c1ccc([N+](=O)[O-])cc1` (centres undefined), for which the OD600 absorbance is inactive: 0.652.

For `Cc1ccccc1CN(C)C(=O)COC(=O)C(O)(c1ccccc1)c1ccccc1`, the OD600 absorbance was inactive: 0.658.

Consider `O=C(OCCN1CCN(CCOCc2ccccc2)CC1)C(O)(c1ccccc1)c1ccccc1`, for which the OD600 absorbance is inactive: 0.7.

Consider `CC(=O)Nc1ccc([As](=O)(O)O)c(O)c1`, for which the OD600 absorbance is inactive: 0.721.

As to `CC(=O)Nc1ccc(Oc2c([N+](=O)[O-])cc([N+](=O)[O-])cc2[N+](=O)[O-])cc1`, the OD600 absorbance was inactive: 0.674.
